These results are taken from PubChem BioAssay AID720533 (National Center for Advancing Translational Sciences (NCATS), 2013).

The nature of the assay: qHTS for Inhibitors of binding or entry into cells for Lassa Virus. Conditions: Lassa virus pseudotyped entry inhibition, cell-based qHTS.

Only a part is listed here, and it is no random draw. Inconclusive results are not listed. Active and inactive are the calls of the source. The call rests on the fitted dose curve; tested in HEK293 cells.
On the % scale 0 is the no-effect control and ±100 the full control effect.

For the compound `Cc1cccc([N+](=O)[O-])c1[N+](=O)[O-]`, where the note is “at 107 µM (top of the series)”, the activity change, negative = inhibition is inactive: -18.8%.

Take `CCOP(=O)(CC)Oc1ccc([N+](=O)[O-])cc1` (stereo not given): the activity change, negative = inhibition (at 49.2 µM (top of the series)) is inactive: -1.21%.

As to `CCN(CCCl)Cc1ccccc1C`, the activity change, negative = inhibition (at 49.2 µM (top of the series)) was inactive: -7.52%.

Regarding `C/C1=C2N=C(/C=C3N=C(/C(C)=C4\[N-][C@@](C)([C@@H]5N=C1[C@](C)(CCC(=O)NC[C@@H](C)OP(=O)([O-])O[C@H]1[C@@H](O)[C@@H](n6cnc7cc(C)c(C)cc76)O[C@@H]1CO)[C@H]5CC(N)=O)[C@@](C)(CC(N)=O)[C@@H]4CCC(N)=O)[C@@](C)(CC(N)=O)[C@@H]\3CCC(N)=O)C(C)(C)[C@@H]/2CCC(N)=O.[C-]#N.[Co+3]`, the activity change, negative = inhibition (at 17.8 µM (top of the series)) is inactive: -16.4%.

As for `CC(C)OP(=O)(F)OC(C)C`, where the note is “at 49.2 µM (top of the series)”, the activity change, negative = inhibition is inactive: 9.89%.

Turning to `OCCSCCO`, the activity change, negative = inhibition (at 49.2 µM (top of the series)) is inactive: -9.8%.

As to `CP1(=O)OC(CCl)CC(CCl)O1` (stereo not given), the activity change, negative = inhibition (at 49.2 µM (top of the series)) was inactive: -48%.

Take `O=C(O)C1(O)c2ccccc2-c2ccccc21`: the activity change, negative = inhibition (at 49.2 µM (top of the series)) was inactive: 4.54%.

Take `O=C(O)C(O)(c1ccccc1)c1ccccc1`: where the note is “at 49.2 µM (top of the series)”, the activity change, negative = inhibition is inactive: 4.3%.

As for `O=[N+]([O-])[O-].[NH4+]`, the activity change, negative = inhibition (at 49.2 µM (top of the series)) was inactive: 5.5%.

As for `CN(C)CCS`, the activity change, negative = inhibition (at 49.2 µM (top of the series)) was inactive: -8.08%.

For `CC(C)N(CCCl)C(C)C`, for the setting “at 49.2 µM (top of the series)”, the activity change, negative = inhibition is inactive: -2.33%.

As to `O=[N+]([O-])OCC(CO[N+](=O)[O-])(CO[N+](=O)[O-])CO[N+](=O)[O-]`, the activity change, negative = inhibition (at 49.2 µM (top of the series)) is inactive: -14.7%.

In the case of `O=[N+]([O-])c1cccc([N+](=O)[O-])c1`, the activity change, negative = inhibition by setting is: (at 49.2 µM (top of the series)) inactive: 1.16%; (at 107 µM (top of the series)) inactive: 8.75%.
